Record: PubChem BioAssay AID624099 (ICCB-Longwood, 2012)
The whole screen tested about 21,000 reagents; below is an unselected part. 497 of all reagents (2.4%) were called active. 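Higher z means weaker E2 silencing; only reporter increases were scored, and knock-downs that hurt cell survival may mask genuine repressor factors.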 No sequences are given here.

Assay: 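Host factors E2 relies on to silence an HPV18 LCR reporter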 (primary screen)
Cells: human C33A cervical carcinoma cells (HPV-negative) stably expressing BPV1 E2 and an HPV18 LCR luciferase reporter
Knock-down reagent: siRNA pool against human genes, 40 nM
Duration: 72 h
Measured: 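HPV18 LCR reporter light per well, converted to plate-wise z-scores that exclude control wells, and averaged over triplicate plates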
Direction: mean z-score and z-score: higher = stronger reporter signal, weaker E2 silencing
Hit rule: 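Mean z ≥ 2 together with z ≥ 2 in two or more of the three replicates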

target gene | mean z-score | z-score, replicate A | z-score, replicate B | z-score, replicate C | Outcome
TLN2-AS2 (TLN2 antisense RNA 2) | 0.44 | 0.63 | 0.05 | 0.64 | inactive
CSMD1 (CUB and Sushi multiple domains 1) | -0.5 | -0.35 | -0.71 | -0.43 | inactive
LOC151363 (retired record) | 1.2 | 1.43 | 1.16 | 1.02 | inactive
SYNE1 (spectrin repeat containing nuclear envelope protein 1) | 0.45 | 0.27 | 0.32 | 0.75 | inactive
FXYD7 (FXYD domain containing ion transport regulator 7) | 1.25 | 1.51 | 1.18 | 1.05 | inactive
CAMK2G (calcium/calmodulin dependent protein kinase II gamma) | -0.47 | -1.11 | -0.11 | -0.18 | inactive
KDM8 (lysine demethylase 8 (putative)) | 0.16 | 0.49 | -0.06 | 0.04 | inactive
LGI3 (leucine rich repeat LGI family member 3) | -0.86 | -1.08 | -0.77 | -0.73 | inactive
SLC22A15 | 0.37 | 0.79 | 0.53 | -0.2 | inactive
NMD3 (NMD3 ribosome export adaptor) | 1.42 | 1.68 | 1.3 | 1.28 | inactive
RNASE4 (ribonuclease A family member 4) | -0.34 | -0.66 | -0.19 | -0.17 | inactive
SLC35F6 | 1.04 | 1.19 | 1.28 | 0.65 | inactive
SOX10 (SRY-box transcription factor 10) | 1.12 | 0.94 | 1.06 | 1.37 | inactive
NPR1 (natriuretic peptide receptor 1) | 0.79 | 1.06 | 0.75 | 0.58 | inactive
ANO2 (anoctamin 2) | 2.09 | 2.07 | 2.41 | 1.78 | active
MYOT (myotilin) | 0.02 | 0.04 | -0.18 | 0.2 | inactive
GRIK2 (glutamate ionotropic receptor kainate type subunit 2) | 0.51 | 0.71 | 0.28 | 0.54 | inactive
LOC402537 (retired record) | -0.9 | -1.05 | -0.84 | -0.81 | inactive
CDKN1C (cyclin dependent kinase inhibitor 1C) | 1.01 | 0.92 | 0.6 | 1.51 | inactive
SMIM8 (small integral membrane protein 8) | -1.82 | -1.78 | -1.83 | -1.85 | inactive
TTYH2 (tweety family member 2) | 1.49 | 1.63 | 1.79 | 1.05 | inactive
NDUFV1-DT (NDUFV1 divergent transcript) | -0.55 | -0.43 | -0.45 | -0.78 | inactive
OTUB1 (OTU deubiquitinase, ubiquitin aldehyde binding 1) | 0.26 | 0.24 | 0.26 | 0.27 | inactive
RPL21 (ribosomal protein L21) | -2.35 | -2.38 | -2.51 | -2.16 | inactive
ERBIN (erbb2 interacting protein) | 0.14 | -0.02 | 0.26 | 0.19 | inactive
NPM3 (nucleophosmin/nucleoplasmin 3) | -0.94 | -1.12 | -0.69 | -1.01 | inactive
VPS53 (VPS53 subunit of GARP complex) | -0.12 | -0.72 | -0.39 | 0.76 | inactive
OSCP1 | 0.43 | 0.5 | 0.41 | 0.39 | inactive
TOR3A (torsin family 3 member A) | 0.71 | 0.59 | 0.68 | 0.85 | inactive
BRK1 (BRICK1 subunit of SCAR/WAVE actin nucleating complex) | 0.7 | 0.32 | 0.78 | 1.01 | inactive
MXRA5 (matrix remodeling associated 5) | -0.72 | -0.54 | -0.86 | -0.76 | inactive
TMEM191A (transmembrane protein 191A (pseudogene)) | 0.02 | -0.1 | 0.2 | -0.05 | inactive
PDGFD (platelet derived growth factor D) | -0.22 | -0.31 | 0.02 | -0.36 | inactive
KCTD16 (potassium channel tetramerization domain containing 16) | 0.66 | 0.6 | 0.66 | 0.74 | inactive
KIAA0319L (KIAA0319 like) | -0.35 | -0.19 | -0.28 | -0.59 | inactive
PSPHP1 (phosphoserine phosphatase pseudogene 1) | -0.53 | -0.75 | -0.42 | -0.43 | inactive
EEF1DP3 | 1.55 | 1.74 | 1.22 | 1.68 | inactive
RECQL4 (RecQ like helicase 4) | 0.16 | 0.45 | 0.19 | -0.15 | inactive
SAMTOR (S-adenosylmethionine sensor upstream of mTORC1) | 0.29 | 0.17 | 0.51 | 0.2 | inactive

Ordered by “z-score, replicate B” (ascending): some entries from above.
target gene | mean z-score | z-score, replicate A | z-score, replicate B | z-score, replicate C | Outcome
MXRA5 (matrix remodeling associated 5) | -0.72 | -0.54 | -0.86 | -0.76 | inactive
PSPHP1 (phosphoserine phosphatase pseudogene 1) | -0.53 | -0.75 | -0.42 | -0.43 | inactive
KIAA0319L (KIAA0319 like) | -0.35 | -0.19 | -0.28 | -0.59 | inactive
PDGFD (platelet derived growth factor D) | -0.22 | -0.31 | 0.02 | -0.36 | inactive
TMEM191A (transmembrane protein 191A (pseudogene)) | 0.02 | -0.1 | 0.2 | -0.05 | inactive
KCTD16 (potassium channel tetramerization domain containing 16) | 0.66 | 0.6 | 0.66 | 0.74 | inactive
